Source: PubChem BioAssay AID624099 (ICCB-Longwood, 2012)

- Screen: 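Host factors E2 relies on to silence an HPV18 LCR reporter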 (primary screen)
- Cell system: human C33A cervical carcinoma cells (HPV-negative) stably expressing BPV1 E2 and an HPV18 LCR luciferase reporter
- Reagents: siRNA pool against human genes, 40 nM
- Timing: 72 h
- Read-out: 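HPV18 LCR reporter light per well, converted to plate-wise z-scores that exclude control wells, and averaged over triplicate plates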
- Reading the numbers: mean z-score and z-score: higher = stronger reporter signal, weaker E2 silencing
- Hit rule: 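Mean z ≥ 2 together with z ≥ 2 in two or more of the three replicates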
Here is an unselected part of about 21,000 reagents tested. In the full data, 497 (2.4%) were called active. 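Higher z means weaker E2 silencing; only reporter increases were scored, and knock-downs that hurt cell survival may mask genuine repressor factors.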

For POF1B, the values are mean z-score 0.12; z-score, replicate A = 0.72; z-score, replicate B = 0.04; z-score, replicate C = -0.41; inactive.
Against AASDH, the values are mean z-score 0.51; z-score, replicate A = 0.72; z-score, replicate B = 0.6; z-score, replicate C = 0.21; inactive.
LNCRI scored mean z-score 0.4; z-score, replicate A = 0.54; z-score, replicate B = 0.39; z-score, replicate C = 0.26; inactive.
IDH3G showed mean z-score 2; z-score, replicate A = 1.97; z-score, replicate B = 1.78; z-score, replicate C = 2.24; inactive.
With knock-down of SSMEM1, the record shows mean z-score -1.32; z-score, replicate A = -1.52; z-score, replicate B = -1.1; z-score, replicate C = -1.34; inactive.
ZNF491 showed mean z-score 0.7; z-score, replicate A = 0.5; z-score, replicate B = 0.66; z-score, replicate C = 0.93; inactive.
With knock-down of MOAP1, the screen gave mean z-score 0.66; z-score, replicate A = 0.69; z-score, replicate B = 0.61; z-score, replicate C = 0.68; inactive.
CREB3L4 scored mean z-score 3.9; z-score, replicate A = 4.24; z-score, replicate B = 4.02; z-score, replicate C = 3.44; active.
With knock-down of LMNB2, the screen gave mean z-score -0.67; z-score, replicate A = -1.03; z-score, replicate B = -0.73; z-score, replicate C = -0.26; inactive.
After knock-down of TPH1 the results were mean z-score 0.72; z-score, replicate A = 0.87; z-score, replicate B = 0.6; z-score, replicate C = 0.71; inactive.
After knock-down of EEF1AKMT1, the record shows mean z-score 1.05; z-score, replicate A = 1.27; z-score, replicate B = 0.81; z-score, replicate C = 1.06; inactive.
Against DMAC1, the values are mean z-score -1.13; z-score, replicate A = -1.06; z-score, replicate B = -0.99; z-score, replicate C = -1.32; inactive.
STX8 scored mean z-score 1.15; z-score, replicate A = 1.59; z-score, replicate B = 1.22; z-score, replicate C = 0.64; inactive.

Active calls (from the list above):
CREB3L4 — mean z-score: 3.9; z-score, replicate A: 4.24; z-score, replicate B: 4.02; z-score, replicate C: 3.44; Call: active

Additional entries follow:
Knock-down of SORCS2 came out at: mean z-score 0.42; z-score, replicate A = 0.33; z-score, replicate B = 0.45; z-score, replicate C = 0.47; inactive.
Silencing of GPS2 resulted in: mean z-score 0.46; z-score, replicate A = 0.58; z-score, replicate B = 0.19; z-score, replicate C = 0.63; inactive.
After knock-down of LOC402537 (retired record), the screen gave mean z-score -0.9; z-score, replicate A = -1.05; z-score, replicate B = -0.84; z-score, replicate C = -0.81; inactive.
Against GAL3ST3, the values are mean z-score -1.03; z-score, replicate A = -0.93; z-score, replicate B = -1.17; z-score, replicate C = -0.99; inactive.
TLCD1 showed mean z-score 0.05; z-score, replicate A = 0.23; z-score, replicate B = -0.23; z-score, replicate C = 0.15; inactive.
For OR8K1, the values are mean z-score -0.13; z-score, replicate A = -0.3; z-score, replicate B = -0.43; z-score, replicate C = 0.35; inactive.
ALG9 showed mean z-score 0.02; z-score, replicate A = -0.21; z-score, replicate B = 0.26; z-score, replicate C = 0; inactive.
PSG7 gave mean z-score 2.3; z-score, replicate A = 2.14; z-score, replicate B = 2.25; z-score, replicate C = 2.52; active.
For LINC01619 the deposit lists mean z-score -0.09; z-score, replicate A = 0.06; z-score, replicate B = -0.08; z-score, replicate C = -0.24; inactive.
Knock-down of TNFSF14 came out at: mean z-score -0.78; z-score, replicate A = -0.85; z-score, replicate B = -0.93; z-score, replicate C = -0.57; inactive.
For FIZ1, the values are mean z-score -0.26; z-score, replicate A = -0.49; z-score, replicate B = -0.25; z-score, replicate C = -0.03; inactive.
Knock-down of LINC01376 came out at: mean z-score 1.45; z-score, replicate A = 1.64; z-score, replicate B = 1.42; z-score, replicate C = 1.28; inactive.
With knock-down of SNPH, the record shows mean z-score -0.38; z-score, replicate A = -0.41; z-score, replicate B = -0.31; z-score, replicate C = -0.43; inactive.
After knock-down of JPT2 the results were mean z-score -1.83; z-score, replicate A = -1.69; z-score, replicate B = -1.96; z-score, replicate C = -1.86; inactive.
